Pooled drug test results. Numbers come from NIAID ChemDB, via PubChem.

Shared fields: growth or infection tests; organism: Mycobacterium tuberculosis

Two numbers with a dash give a range or band. MIC bound: limit read from a one-dose screen. Percent inhibition refers to the dose given; in toxicity tests it is the harm to the cells. Conditions beyond the fields shown may differ between rows. ECn is the concentration giving n% inhibition of infection, replication or growth. A number after MIC or MFC names an inhibition level or a share of isolates. An empty or dashed field is not shown.

compound,tested at,read by,endpoint,cell line,setting,strain or isolate,result
C=CCN1C(=O)/C(=C/c2cccc(O)c2)S/C1=N\c1nc2ccccc2s1,-,-,MIC,-,-,H37Rv,≥25 µg/mL
CO[C@H]1/C=C/O[C@@]2(C)Oc3c(C)c(O)c4c(O)c(cc(OCC(=O)N5CCCCC5C)c4c3C2=O)NC(=O)/C(C)=C\C=C\[C@H](C)[C@H](O)[C@@H](C)[C@@H](O)[C@@H](C)[C@H](OC(C)=O)[C@@H]1C,-,-,MIC,-,-,H37Rv,0.18 µg/mL
CCOc1ccc(N2C(=O)/C(=C/c3ccc(O)c(OCC)c3)S/C2=N\c2ccccn2)cc1,-,-,MIC,-,-,H37Rv,≥25 µg/mL
CO[C@H]1/C=C/O[C@@]2(C)Oc3c(C)c(O)c4c(O)c(cc(O)c4c3C2=O)NC(=O)/C(C)=C\C=C\[C@H](C)[C@H](O)[C@@H](C)[C@@H](O)[C@@H](C)[C@H](OC(C)=O)[C@@H]1C,-,-,MIC,-,-,H37Rv,0.05 µg/mL
OCCN1CCN(CCCN2c3ccccc3Sc3ccc(C(F)(F)F)cc32)CC1,12.5 µg/mL,BACTEC,inhibition,-,-,H37Rv,91%
COCCN(C1CCN(CC2C(c3ccccc3)=Nc3ccccc32)C1)S(C)(=O)=O,-,-,MIC,-,-,-,6.25 µM
O=C(c1ccc(S(=O)(=O)c2ccccc2)cc1)C(Cl)Cl,-,-,MIC,-,-,H37Rv,6.25 µg/mL
Nc1ccc2c(-c3ccccc3)cc(=S)[nH]c2n1,12.5 µg/mL,-,inhibition,-,-,H37Rv,0%
NC(=O)NC(=O)C1CCC(=O)N1S(=O)(=O)c1ccc(Cl)cc1,12.5 µg/mL,BACTEC,inhibition,-,-,H37Rv,16%
Cc1cc(C(=O)/C=C/c2ccc(N(C)C)cc2)ccc1O,6.25 µg/mL,-,inhibition,-,-,H37Rv,91%
COc1cc(C(=O)N/N=C/c2cccc3ccccc23)ccc1O,-,BACTEC,MIC bound,-,-,H37Rv,>12.5 µg/mL
CC(C)OC(=O)c1cc[n+](CC(=O)c2ccccc2)cc1.[Br-],-,resazurin,MIC,-,-,H37Rv,0.5 µg/mL
O=C(c1ccc(S(=O)c2ccccc2)cc1)C(Cl)Cl,-,-,MIC,-,-,H37Rv,3.125 µg/mL
O=C(Oc1ccc(Cl)cc1C(=O)Nc1cccc(C(F)(F)F)c1)c1cnccn1,-,-,MIC,-,14 d,multidrug resistant 53/2009,1 µM
OCCN(CCO)c1ccc2c(-c3ccccc3)cc(N(CCO)CCO)nc2n1,12.5 µg/mL,-,inhibition,-,-,H37Rv,0%
O=C(Oc1ccc(Cl)cc1C(=O)Nc1ccc(Cl)c(Cl)c1)c1cnccn1,-,-,MIC,-,21 d,multidrug resistant 53/2009,1 µM
O=C(O)c1ccccc1C1NC(C(=O)O)CC2c3ccccc3NC21,12.5 µg/mL,BACTEC,inhibition,-,-,H37Rv,7%
O=c1ccc2c(-c3ccccc3)cc(N3CCNCC3)nc2[nH]1,12.5 µg/mL,-,inhibition,-,-,H37Rv,7%
NNC(=O)C(=O)Nc1ccc(F)cc1,12.5 µg/mL,BACTEC,inhibition,-,-,H37Rv,46%
CCOc1ccc(N2C(=O)/C(=C/c3ccc(OC)cc3)S/C2=N\c2ccccn2)cc1,-,-,MIC,-,-,H37Rv,≥25 µg/mL
COc1ccccc1OC(=O)c1ccc(N)cc1O,-,-,MIC,-,-,Frankfurt,0.05 µg/mL
N#CCCN(CCCN(C(=O)Nc1ccc(NC(=O)N(CCCN(CCC#N)C(N)=O)c2ccccc2)cc1)c1ccccc1)C(N)=O,-,resazurin,MIC bound,-,-,H37Rv,>6.25 µg/mL
O=C(NNC(=O)c1ccncc1)Nc1ccc(Cl)c(C(F)(F)F)c1,-,broth dilution,MIC100,-,21 d,My 331/88,32 µM
CO[C@H]1/C=C/O[C@@]2(C)Oc3c(C)c(O)c4c(O)c(c5c(c4c3C2=O)NC2(C[C@@H](c3ccc(F)cc3)N[C@@H](c3ccc(F)cc3)C2)N=5)=NC(=O)/C(C)=C\C=C\[C@H](C)[C@H](O)[C@@H](C)[C@H](O)[C@H](C)[C@H](OC(C)=O)[C@@H]1C,-,-,MIC,-,-,ATCC 35822 (isoniazid-resistant),0.02 µg/mL
COC1C(O)=C2C(=O)OC(C)(O)/C=C/C=C/C=C/C=C\C(c3ccccc3)NC(=O)/C=C/C=C/C=C/C=C/C2(C)C1O,-,-,MIC,-,-,H37Rv,>12.5 µg/mL
O=C(c1ccc(-c2ccccc2)cc1)C(Cl)Cl,-,-,MIC,-,-,H37Rv,6.25 µg/mL
CC1OC(n2ccc(NC(=O)c3ccc(NC(=O)C(C)(N)CO)cc3)nc2=O)CCC1OC1OC(C)C(N(C)C)C(O)C1O,-,-,MIC,-,-,PAS-R,0.8 µg/mL
O=S(=O)(NC1CCN(Cc2ccncc2)CC1)c1ccc(-n2cccn2)cc1,-,-,MIC,-,-,Clinical isolate,0.8–3.1 µM
CCC(C)c1cc(C)cc(OC(=O)c2ccc(N)cc2O)c1,-,-,MIC,-,-,H37Rv (p-aminosalicylate-resistant),100 µg/mL
CC(C)(C)c1ccc(NC(=O)NNC(=O)c2ccncc2)cc1,-,broth dilution,MIC100,-,14 d,My 331/88,8 µM
CCN(CC)c1ccc2nc3c4ccccc4c(=NC(=O)c4ccccc4-c4c5ccc(N(CC)CC)cc5[o+]c5cc(N(CC)CC)ccc45)cc-3oc2c1.[Cl-],-,-,MIC,-,-,PZA-R,1.6 µg/mL
O=C(NNC(=O)c1ccncc1)Nc1ccc(Br)cc1Br,-,broth dilution,MIC100,-,21 d,My 331/88,8 µM
Cn1cnnc1SCc1ccc(Cl)cc1,-,-,MIC,-,-,My 331/88,1000 µM
COc1cc(C2CC(c3ccc(O)c(C)c3)=NN2)cc(OC)c1OC,6.25 µg/mL,-,inhibition,-,-,H37Rv,86%
CCC1C[N+]2(C)CCc3cc(OC)c(OC)cc3C2CC1=O,12.5 µg/mL,BACTEC,inhibition,-,-,H37Rv,-6%
O=C(NNC(=O)c1ccncc1)Nc1cc(Cl)cc(Cl)c1,-,broth dilution,MIC100,-,21 d,My 331/88,62.5 µM
CCOc1ccc(N2C(=O)CS/C2=N\c2ccccn2)cc1,-,-,MIC,-,-,H37Rv,≥25 µg/mL
COC(=O)/C(=N\NC(=O)C[N+](C)(C)C)C(C(=O)OC)C(=O)C(=O)Nc1ccc(F)cc1.[Cl-],12.5 µg/mL,BACTEC,inhibition,-,-,H37Rv,1%
CO[C@H]1/C=C/O[C@@]2(C)Oc3c(C)c(O)c4c(O)c(c5c(c4c3C2=O)NC2(CCNCC2)N=5)=NC(=O)/C(C)=C\C=C\[C@H](C)[C@H](O)[C@@H](C)[C@@H](O)[C@@H](C)[C@H](OC(C)=O)[C@@H]1C,-,-,MIC,-,-,ATCC 35838 (rifampicin- rifabutin-resistant),0.5 µg/mL
O=C(NNC(=O)c1ccncc1)Nc1ccc(Br)c(F)c1,-,broth dilution,MIC100,-,14 d,My 331/88,62.5 µM
CO[C@H]1/C=C/O[C@@]2(C)Oc3c(C)c(O)c4c(O)c(c5c(c4c3C2=O)NC2(C[C@@H](c3ccccc3)N[C@@H](c3ccccc3)C2)N=5)=NC(=O)/C(C)=C\C=C\[C@H](C)[C@H](O)[C@@H](C)[C@H](O)[C@H](C)[C@H](OC(C)=O)[C@@H]1C,-,-,MIC,-,-,ATCC 35820 (streptomycin-resistant),0.02 µg/mL
COC(=O)C1(C)C=CC(=O)C2(C)C1C(O)C1OC3CC(c4ccoc4)C(C)=C3C1(C)C2CC(=O)O,-,BACTEC,MIC,-,-,H37Rv,≥12.8 µg/mL
O=S(=O)(c1ccc(-n2cccn2)cc1)N1CCN(Cc2ccncc2)CC1,-,-,MIC,-,-,-,12.5 µM
Cc1cc(C2=NNC(c3ccc(F)cc3)C2)ccc1O,-,-,MIC,-,-,H37Rv,>6.25 µg/mL
CCOC(=O)N1CCN(c2cc(-c3ccccc3)c3ccc(=O)[nH]c3n2)CC1,-,-,EC50,-,-,H37Rv,>12.5 µg/mL
Cc1cc(C2=NNC(c3ccc(Cl)cc3)C2)ccc1O,6.25 µg/mL,-,inhibition,-,-,H37Rv,90%
N#Cc1ccccc1CSc1ncnc2nc[nH]c12,-,resazurin,MIC bound,-,-,H37Rv,>6.25 µg/mL
O=C(c1ccc(Cc2ccccc2)cc1)C(Cl)Cl,-,-,MIC,-,-,H37Rv,12.5 µg/mL
Cc1oc(C)c2c1C(=O)c1ccccc1C2=O,12.5 µg/mL,BACTEC,inhibition,-,-,H37Rv,19%
O=C(Oc1ccc(Cl)cc1C(=O)Nc1ccc(Cl)cc1)c1cnccn1,-,-,MIC,-,21 d,H37Rv 331/88,2 µM
COC(=O)C[C@H]1[C@@H](OC(C)=O)[C@H](n2cc(C)c(=O)[nH]c2=O)O[C@@H]1COC(C)=O,-,resazurin,MIC bound,-,-,H37Rv,>6.25 µg/mL
C=CCN1C(=O)/C(=C/c2ccc(NC(C)=O)cc2)S/C1=N\c1nc2ccccc2s1,-,-,MIC,-,-,H37Rv,≥25 µg/mL
O=C(c1ccc(CCc2ccc(C(=O)C(Br)Br)cc2)cc1)C(Br)Br,-,-,MIC,-,-,H37Rv,3.125 µg/mL
C=CCN1C(=O)/C(=C/C2Oc3ccccc3O2)S/C1=N\c1nc2ccccc2s1,-,-,MIC,-,-,H37Rv,≥25 µg/mL
O=C(Oc1ccc(Cl)cc1C(=O)Nc1ccc(C(F)(F)F)cc1)c1cnccn1,-,-,MIC,-,14 d,extensively drug resistant Praha 131,0.125 µM
Clc1ccc2c(-c3ccccc3)cc(Cl)nc2n1,12.5 µg/mL,-,inhibition,-,-,H37Rv,4%
Cc1ccc(NC(=O)CN2CCOCC2)cc1Cl,12.5 µg/mL,BACTEC,inhibition,-,-,H37Rv,17%
CCNC(=O)COc1cc2c(O)c3c(O)c(C)c4c(c13)C(=O)[C@@](C)(O/C=C/[C@H](OC)[C@@H](C)[C@@H](OC(C)=O)[C@H](C)[C@H](O)[C@H](C)[C@@H](O)[C@@H](C)/C=C/C=C(/C)C(=O)N2)O4,-,-,MIC,-,-,H37Rv,0.15 µg/mL
Fc1ccccc1CSc1ncn[nH]1,-,-,MIC,-,-,My 331/88,500 µM
Cc1cc(COC(=O)c2ccc(N)cc2O)ccc1C(C)C,-,-,MIC,-,-,H37Rv (streptomycin-resistant),0.025 µg/mL
Cl.Cl.Cl.c1ccc(-c2cc(N3CCNCC3)nc3ncccc23)cc1,-,-,EC50,-,-,H37Rv,>12.5 µg/mL
Cn1cn[nH]c1=S,-,-,MIC,-,-,My 331/88,>1000 µM
CCCCCCCc1ccc(NC(=O)NNC(=O)c2ccncc2)cc1,-,broth dilution,MIC100,-,14 d,My 331/88,16 µM
CC(=O)Nc1ccc2c(-c3ccccc3)cc(=O)[nH]c2n1,-,-,EC50,-,-,H37Rv,>12.5 µg/mL
O=C1C(=O)c2nc3ccccc3nc2-c2ccccc21,12.5 µg/mL,BACTEC,inhibition,-,-,H37Rv,92%
O=C(Oc1ccc(Br)cc1C(=O)Nc1ccc(C(F)(F)F)cc1)c1cnccn1,-,-,MIC,-,21 d,H37Rv 331/88,1 µM
CCN(CCO)C(=O)COc1cc2c(O)c3c(O)c(C)c4c(c13)C(=O)[C@@](C)(O/C=C/[C@H](OC)[C@@H](C)[C@@H](OC(C)=O)[C@H](C)[C@H](O)[C@H](C)[C@@H](O)[C@@H](C)/C=C/C=C(/C)C(=O)N2)O4,-,-,MIC,-,-,H37Rv,0.09 µg/mL
Cn1cnnc1SCc1cccc(Br)c1,-,-,MIC,-,-,My 331/88,500 µM
CCOC(=O)N1CCN(c2cc(-c3ccccc3)c3ccc(NC(C)=O)nc3n2)CC1,12.5 µg/mL,-,inhibition,-,-,H37Rv,0%
CO[C@H]1/C=C/O[C@@]2(C)Oc3c(C)c(O)c4c(O)c(c(/C=N/N5CCN(C)CC5)c(O)c4c3C2=O)NC(=O)/C(C)=C\C=C\[C@H](C)[C@H](O)[C@@H](C)[C@@H](O)[C@@H](C)[C@H](OC(C)=O)[C@@H]1C,-,resazurin,MIC,-,-,H37Ra,0.05–0.1 µg/mL
CCOc1ccc(N2C(=O)/C(=C/c3ccccc3OC)S/C2=N\c2ccccn2)cc1,-,-,MIC,-,-,H37Rv,≥25 µg/mL
CN(C)CCNc1ccc2nnn3c4ccc(O)cc4c(=O)c1c23,-,BACTEC,MIC,VERO,-,H37Rv,12.5 µg/mL
CO[C@H]1/C=C/O[C@@]2(C)Oc3c(C)c(O)c4c(O)c(cc(OCC(=O)Nc5ccc(I)cc5)c4c3C2=O)NC(=O)/C(C)=C\C=C\[C@H](C)[C@H](O)[C@@H](C)[C@@H](O)[C@@H](C)[C@H](OC(C)=O)[C@@H]1C,-,-,MIC,-,-,H37Rv,0.15 µg/mL
Cc1nnc(NS(=O)(=O)c2ccc(N=Nc3cc(N=Nc4ccccc4)c(N)nc3N)cc2)s1,-,BACTEC,MIC,-,-,H37Rv,≥12.5 µg/mL
CO[C@H]1/C=C/O[C@@]2(C)Oc3c(C)c(O)c4c(O)c(c(/C=N/N5CCN(C)CC5)c(O)c4c3C2=O)NC(=O)/C(C)=C\C=C\[C@H](C)[C@H](O)[C@@H](C)[C@@H](O)[C@@H](C)[C@H](OC(C)=O)[C@@H]1C,-,-,MIC,-,-,H37Rv,0.01 µM
O=C(Nc1ccc(C2=NCCN2)cc1)c1cccc(C(=O)Nc2ccc(C3=NCCN3)cc2)n1,128 µg/mL,BACTEC,inhibition,-,-,H37Rv,66%
CO[C@H]1/C=C/O[C@@]2(C)Oc3c(C)c(O)c4c(O)c(cc(OCC(=O)NN)c4c3C2=O)NC(=O)/C(C)=C\C=C\[C@H](C)[C@H](O)[C@@H](C)[C@@H](O)[C@@H](C)[C@H](OC(C)=O)[C@@H]1C,-,-,MIC,-,-,H37Rv,0.15 µg/mL
COc1ccc(-c2ccc(C(=O)C(Cl)Cl)cc2)cc1Cl,-,-,MIC,-,-,H37Rv,12.5 µg/mL